Molecules are shown by their SMILES.

The target of this experiment is Human immunodeficiency virus type 1 reverse transcriptase (Human immunodeficiency virus 1) (UniProt Q72547). Description: Inhibition of HIV1 reverse transcriptase at 1 uM. The method, boiled down:
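Wild-type HIV-1 RT enzyme screen with rC-dG template-primer. Percent inhibition is the mean of two experiments, each run in triplicate.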

For the compound `O=[N+]([O-])c1cccc2c1nc(-c1c(F)cccc1F)n2Cc1c(F)cccc1F`, the inhibition (in general, the relative decrease from the control value, in per cent) is 51%.

Source of the values: ChEMBL document CHEMBL1148728, “Synthesis, biological activity, and crystal structure of potent nonnucleoside inhibitors of HIV-1 reverse transcriptase that retain activity against mutant forms of the enzyme” (J Med Chem, 2007).
